This series has as its target VirF (Shigella flexneri) (UniProt P0A2T1). Briefly: EMSA. To be noted: 250 uM VirF, 100 nM DNA, no fatty acid; EMSA: 10 mM Tris pH 7.5, 1 mM EDTA, 100 mM KCl, 0.1 mM DTT, 5% glycerol, 0.01 mg/ml BSA; 15 min at 37 C; 6% polyacrylamide gel, 1X TAE; recombinant protein; label: none (SYBR green stain); probe letters rebuilt from the primers and the genome. A general note: Mobility shift assays separate free from complexed probe on a gel.

Chains of the proteins cited; added tags and fusions are not shown.
UniProt P0A2T1, whole entry: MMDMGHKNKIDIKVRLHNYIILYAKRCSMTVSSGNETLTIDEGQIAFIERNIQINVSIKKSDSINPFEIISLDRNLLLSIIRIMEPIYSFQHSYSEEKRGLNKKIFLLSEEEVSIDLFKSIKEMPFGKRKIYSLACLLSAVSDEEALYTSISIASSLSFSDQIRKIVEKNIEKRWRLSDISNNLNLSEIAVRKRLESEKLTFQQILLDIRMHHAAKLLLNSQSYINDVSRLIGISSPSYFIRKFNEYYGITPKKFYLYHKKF

Here are results for one sequence from article PMC10519361, “Shigella flexneri utilizes intestinal signals to control its virulence” (Gut Microbes, 2023).

For at least one entry, the source does not settle the construct or the ends of the probe. At least one verdict was read from the data and is not stated in words by the source.

As to “AATTGATAAGCATTTTTTCATCTATGGAGCTCTCACATCAGAGCTCCACAAGAATATTATTCTTTTATCCAATAAAGATAAATTGCATCAATCCAGCTATTAAAATAGTAATTTTTAAGACTACCGTTGACTATCATCAACAGTTACATACAATCTTGCTCACACTGCATTTAACTTTTGTCAATATAAATCAATATGAATAAACAGGGTGTGAT (double strand) [virB promoter (PvirB)]”, the binding result is given as “binds”.
